The values below come from paper PMC6835510, “Magnificamide, a β-Defensin-Like Peptide from the Mucus of the Sea Anemone Heteractis magnifica, Is a Strong Inhibitor of Mammalian α-Amylases” (Marine Drugs, 2019).

A short description of this data set: Circular dichroism spectroscopy, secondary structure. The data set is classed as physicochemical. Conditions: CD, 50 µg/mL, 0.01 M sodium phosphate buffer pH 7.0, 25 °C; for α-Helix III / β-Structure III: III appears to be the total of I and II; for Unordered Structure / α-Helix I / α-Helix II / β-Structure I / β-Structure II / β-Turn: Provencher–Glöckner method. In general terms: Circular dichroism is the unequal absorption of left and right circularly polarised light.

Bridge positions count the residues as written; N and C are the ends. Ends that are not written are not given here.

Regarding “SEGTSCYIYHGVYGICKAKCAEDMKAMAGMGVCEGDLCCYKTPW (disulfide 6-38, 16-33, 20-39) [r-magnificamide]”, where the note is “listed as r-Magnificamide”, the “α-Helix III” value is on record as 1.2 percentages, the “β-Structure III” value was found to be 32.9 percentages, the “Unordered Structure” value is recorded as 43.7 percentages and the “α-Helix I” value is listed as 0.1 percentages. Where the note is “listed as r-Magnificamide”, the “α-Helix II” value was found to be 1.1 percentages, the “β-Structure I” value is listed as 18.2 percentages, the “β-Structure II” value came out at 14.7 percentages and the β-Turn worked out at 22.2 percentages.
Take “SEGTSCYIYHGVYGICKAKCAEDMKAMAGMGVCEGDLCCYKTPW (disulfide 6-38, 16-33, 20-39) [Magnificamide]”: the “α-Helix III” value was determined as 1.7 percentages, the “β-Structure III” value came to 35.1 percentages, the “Unordered Structure” value is recorded as 38.9 percentages and the “α-Helix I” value came out at 0.0 percentages. Also, the “α-Helix II” value was determined as 1.7 percentages, the “β-Structure I” value is given as 21.4 percentages, the “β-Structure II” value turned out to be 13.7 percentages and the β-Turn is 24.3 percentages.
